Pooled drug test results. Numbers come from NIAID ChemDB, via PubChem.

Common to all: cytotoxicity tests; cell line: HepG2; measure: CC50

Blank or dashed fields: not listed here.

structure | method | value
CC(C)(C)c1ccc(N2CCN(Cc3ccc([N+](=O)[O-])o3)CC2)cc1 | MTT | >58 µM
O=C1COc2ccc(N3C[C@H]4CN(CCn5c(=O)ccc6ccc(Oc7cccnc7)nc65)C[C@@H]4OC3=O)nc2N1 | luminescence | >100 µg/mL
C[C@H]1C[C@@H]1NC(=O)c1cc2sc(OC3CC4(COC4)C3)nc2s1 | fluorescence | >100 µM
CCC1(NC(=O)C(=O)c2c(C)c(C(=O)Nc3ccc(F)c(C)c3)c(C)n2C)CCN(C(=O)c2cn(C)nc2C(F)F)CC1 | MTT | >30 µM
CCCC(=O)Nc1nc(N)nc2c1ncn2[C@H]1CO[C@@H](COP(=O)(N[C@@H](C)C(=O)OCC)Oc2ccccc2)O1 | MTS | >100 µM
O=c1ccn([C@@H]2O[C@H](CO)C(F)(F)C2(F)F)c(=O)[nH]1 |  | >100 µM
Cc1cccc(C)c1Oc1ccc(-c2nc(N)nc(N)n2)cc1 | sulforhodamine / absorbance | >260 µM
Cc1cc(NC(=O)c2c(C)c(C(=O)C(=O)NC3(C)CCC(O)CC3)n(C)c2C2CC2)ccc1F | MTT | >30 µM
CCCCCCCCCCCCN=C(N)c1ccc(N2CCN(c3ccc(C(N)=NCCCCCCCCCCCC)cc3)CC2)cc1 |  | 24.8 µg/mL
O=C(NC1CCC1)c1cc2sc(C3CC3)nc2s1 | fluorescence | >100 µM
Cc1cc(=O)oc2cc(-c3ccc([N+](=O)[O-])o3)c3c(c12)OC(C)(C)C=C3 | ATP / luminescence | 3 µg/mL
COc1ccc2c3conc3c(=O)n(CCN3C[C@@H]4CN(c5ccc6c(n5)NC(=O)CO6)C(=O)O[C@H]4C3)c2n1 | luminescence | 1–10 µg/mL
Nc1ncnc2c1ncn2[C@@H]1O[C@H](CO)C(F)(F)C1(F)F |  | >100 µM
Cc1cc(C#N)cc(C)c1Oc1cc(Nc2ccc(C#N)cc2)nc2ccccc12 | MTT | ≥50 µg/mL
CC(C)CCN=C(N)c1ccc(N2CCN(c3ccc(C(N)=NCCC(C)C)cc3)CC2)cc1 |  | >0.9 µg/mL
Cc1cc(NC(=O)c2c(C)c(C(=O)C(=O)NC3(CO)CCN(S(C)(=O)=O)CC3)n(C)c2C)ccc1F | MTT | >30 µM
C[C@@H](CCCCCC(F)(F)F)CC1=C(O)c2ccccc2C(=O)C1=O | MTT | 6.83 µM
Cc1cc(Oc2ccc(-c3nc(N)nc(N)n3)cc2)ccc1Cl | sulforhodamine / absorbance | >244 µM
CCCCCCCCCCCCCC(=O)Nc1nc(N)nc2c1ncn2[C@H]1CO[C@@H](COP(=O)(N[C@@H](C)C(=O)OCC)Oc2ccccc2)O1 | MTS | 57 µM
CC(C)(C)Nc1nc2cc(-c3ccc(Cl)cc3)sc2c(=O)[nH]1 | MTT | 15 µM
c1cc(N2CCN(c3ccc(C4=NCCN4)cc3)CC2)ccc1C1=NCCN1 |  | 290.6 µM
Cc1cc(NC(=O)c2c(C)c(C(=O)C(=O)NCC(C)(C)O)n(C)c2-c2cccnc2)ccc1F | MTT | >30 µM
Cc1ccc(-c2cc3nc(NC(C)(C)C)[nH]c(=O)c3s2)cc1.Cl | MTT | 24 µM
Cc1cn([C@@H]2O[C@H](COP(=O)(N[C@@H](C)C(=O)OC(C)C)Oc3ccccc3)C(F)(F)C2(F)F)c(=O)[nH]c1=O |  | >100 µM
Nc1nc(N)nc(-c2ccc(Oc3ccc(Br)cc3)cc2)n1 | sulforhodamine / absorbance | >223 µM
Nc1nc2c(ncn2[C@@H]2O[C@H](CO)C(F)(F)C2(F)F)c(=O)[nH]1 |  | >100 µM
Cc1cccc2c1C(=O)C(=O)C(C[C@@H](C)CCCCCC(F)(F)F)=C2O | MTT | >54.29 µM
COc1ccc(Oc2ccc(-c3nc(N)nc(N)n3)cc2)cc1 | sulforhodamine / absorbance | >259 µM
CCCCCCCCCC(=O)Nc1nc(N)nc2c1ncn2[C@H]1CO[C@@H](COP(=O)(N[C@@H](C)C(=O)OCC)Oc2ccccc2)O1 | MTS | 9.5 µM
C[C@H]1C[C@@H]1NC(=O)c1cc2sc(OC[C@@H]3CCOC3)nc2s1 | fluorescence | >100 µM
Nc1ccn([C@@H]2O[C@H](CO)C(F)(F)C2(F)F)c(=O)n1 |  | >100 µM
CCCCCC(=O)Nc1nc(N)nc2c1ncn2[C@H]1CO[C@@H](COP(=O)(N[C@@H](C)C(=O)OCC)Oc2ccccc2)O1 | MTS | >100 µM
CCCCCCCCCN=C(N)c1ccc(N2CCN(c3ccc(C(N)=NCCCCCCCCC)cc3)CC2)cc1 |  | 6.63 µg/mL
O=C(O)c1ccc(N2C(=O)c3cccc([N+](=O)[O-])c3C2=O)cc1O | visual reading / absorbance | >100 µg/mL
C[C@@H]1CN(c2nc3sc(C(=O)NC4CC5(CC5)C4)cc3s2)CCN1C1COC1 | fluorescence | >100 µM
Nc1nc(N)nc(-c2ccc(Oc3ccc(Cl)cc3Cl)cc2)n1 | sulforhodamine / absorbance | >230 µM
CCc1c(C(=O)Nc2ccc(F)c(C)c2)c(C)n(C)c1C(=O)C(=O)NC1CCC(S(C)(=O)=O)CC1 | MTT | >30 µM
CC1CC(NC(=O)c2cc3sc(N4CCN(C5COC5)[C@H](C)C4)nc3s2)C1 | fluorescence | >100 µM

5 of the rows above, restated:

| structure | method | value |
|---|---|---|
| CCc1c(C(=O)Nc2ccc(F)c(C)c2)c(C)n(C)c1C(=O)C(=O)NC1CCC(S(C)(=O)=O)CC1 | MTT | >30 µM |
| CC(C)(C)Nc1nc2cc(-c3ccc(Cl)cc3)sc2c(=O)[nH]1 | MTT | 15 µM |
| C[C@H]1C[C@@H]1NC(=O)c1cc2sc(OC[C@@H]3CCOC3)nc2s1 | fluorescence | >100 µM |
| Cc1ccc(-c2cc3nc(NC(C)(C)C)[nH]c(=O)c3s2)cc1.Cl | MTT | 24 µM |
| C[C@@H](CCCCCC(F)(F)F)CC1=C(O)c2ccccc2C(=O)C1=O | MTT | 6.83 µM |

Conditions beyond the fields shown may differ between rows. CCn is the concentration with n% toxicity to the cells. a–b is a range or a potency band.